# Source: patent US20250019422A1 (MAX PLANCK GESELLSCHAFT ZUR F RDERUNG DER WISSENSCHAFTEN E V, published 2025)
# Biological target: SARS-CoV-2 spike protein, original Wuhan strain (SARS-CoV-2 (Wuhan strain))
# Experiment: cell-based or functional assay
row,Binder,Lowest neutralizing concentration (pM)
1,Ma2H07 (VHH) VHH: QVQLVESGGGLVQPGGSLRLSCAYSGITLDYYAIGWFRQAPGKEREGVSYISSSNDRTDYADSVKGRFTISRDNAKNTVFLQMNSLQPEDTAVYYCATVTGTYYSGRWYYNWHPEAVDYWGKGTLVTVSS,170
2,"Ma2E06 (VHH, also called Ma02E06) VHH: QVQLVESGGDLVQPRGSLRLSCAASGITLDYYAIGWFRQAPGKEREGVSYISNTNDKTDYADSVKGRFTISRDNAENTVFLQMNSLQPEDTAVYYCATVPGTYYGGRWYYTWHPEAVRYWGKGTQVTVSS",170
3,Ma2F10 (VHH) VHH: QVQLVESGGGLVQPGGSLRLSCAYSGITLDYYAIGWFRQAPGKEREGVSYISGSNDRTDYADSVKGRFTISRDNAKNTVFLQMNSLEPEDTAVYYCATVTGTYYSGRWYYNWHPEAVDYWGKGTLVTVSS,50
4,Re32D08 (VHH) VHH: QVQLVESGGGLVSPGGSLKLSCAASGLTLDYYGIGWFRQVPGKEREGVSCLGVPDNRTLYAPSVKGRFTISRDNAKNTFYLEMNSLNPEDSAVYYCAAGPVVPGHMCRIPTPLGYDYWGQGTQVTVSS,70
5,Re30H02 (VHH) VHH: QVQLVESGGDSVQPGDSLRLSCAISGFTLDYYTIGWFRQAPGKEREGVSCIGSSDSSTSYADAVKGRFTISSDNAKNTVYLQMNNLKPEDTAVYYCAAGPATYYGGNWHHTCHANAMHYWGKGTLVTVSS,50
6,Re32B11 (VHH) VHH: QVQLVESGGGLVQPGGSLRLSCATSGITLDYYAIGWFLQAPGKEREGVSCMRNSDGRTVYAPSVKGRFTISRDNAKKMVYLEMNNLKSEDTGVYYCAAGPLPPGISCRIPTPLGYDDWGQGTQVTVSS,50
7,Re32F03 (VHH) VHH: QVQLVESGGGLVQPGGSLRLSCATSGITLDYYAIGWFLQAPGKEREGVACMRSSDERSLYAPSVKGRFTISRDNAKKTVYLEMNSLKPEDTGVYYCASGSVVPGTMCRIPTPLGYDDWGQGTQVTVSS,50
8,Re32G06 (VHH) VHH: QVQLVESGGGLVQPGGSLRLSCAISGITLDYYAVGWFLQAPGKEREGISCMRNWDGRTVYAPSVKGRFTISSDNAKKMVYLEMNSLKSEDTGVYYCAAGPLPPGTSCRIPTPLGYDDWGQGTQVTVSS,50
9,Re9F06-Re5D06R15_Tandem (bispecific antibody) EGSQVQLVESGGGLVQAGGSLRLSCAASGRTFSNDALGWFRQAPRKEREFVAAINWNSGTYYADSVKGRFTISRDNAKNTVYLQMNSLKPEDTAVYSCAAASDYGLPREDFLYDYWGQGTQVTVSETEGEGEGGGEGGEGSQVQLVESGGGLVEPGGSLRLSCAASGITLDYYAMGWFREAPGKEREGVARIRNSDGSTNYADSVKGRFTMSRDNAKDTYYLQMNSLEPEDTADYYCAYGPLTKYGSSWYWPYEYDYWGEGTEVTVSS,50
10,Re9F06-Re5D06R28_Tandem (bispecific antibody) EGSQVQLVESGGGLVQAGGSLRLSCAASGRTFSNDALGWFRQAPRKEREFVAAINWNSGTYYADSVKGRFTISRDNAKNTVYLQMNSLKPEDTAVYSCAAASDYGLPREDFLYDYWGQGTQVTVSETEGEGEGGGEGGEGSQVQLVESGGGLVEPGGSLRLSCAISGSTLDYYAMGWFREAPGKEREGVARWRNNDGSTNYADSVKGRFTMSRDNAKDTYYLQMNSLEPEDTADYYCAYGPLTKYGSSWHWPYEYDYWGEGTEVTVSS,50
11,Re5D06R15 (VHH) VHH: QVQLVESGGGLVQPGGSLRLSCAASGITLDYYAMGWFREAPGKEREGVARIRNSDGSTNYADSVKGRFTMSRDNAKDTYYLQMNSLEPEDTADYYCAYGPLTKYGSSWYWPYEYDYWGQGTQVTVSS,50
